A mixed list of measured activities; the numbers were collected in NIAID ChemDB.

Shared fields: tests in culture; organism: Herpes simplex virus 1; cell line: HEL; read-out: EC50

Lines come from different laboratories, so protocols vary. An empty or dashed field is not shown. ECn: concentration that inhibits the pathogen or its effect by n%.

SMILES | strain or isolate | method | value
Nc1ncnc2c1ccn2[C@H]1C[C@H](O)[C@@H](CO)O1 | KOS | - | 100 µM
Nc1nc(N)c2ncn(CCOCP(=O)(O)O)c2n1 | KOS PMEDAP-resistant | cytopathic effect | 60 µg/mL
Nc1nc(N)c2ncn(CCOCP(=O)(O)O)c2n1 | ACV-resistant | cytopathic effect | 5.7 µg/mL
O=c1[nH]c(=O)n([C@@H]2O[C@H](CO)[C@@H](O)[C@@H]2O)cc1/C=C/I | - | plaque count | 0.119 µM
Nc1nc2c(ncn2CCC(CO)CO)c(=O)[nH]1 | KOS | cytopathic effect | 0.044 µg/mL
Nc1nccc2c1ncn2[C@H]1C[C@H](O)[C@@H](COP(=O)(O)COC(=O)[C@@H](N)CC(=O)O)O1 | KOS | - | >100 µM
O=C(O)P(=O)(O)O | PCV-resistant/B | cytopathic effect | 20 µg/mL
O=c1[nH]c(=O)n([C@@H]2O[C@H](CO)[C@@H](O)[C@@H]2O)cc1C=C(Br)Br | - | plaque count | 704 µM
Nc1ncnc2c1ncn2CCOCP(=O)(O)O | KOS GCV-resistant | cytopathic effect | 22.4 µg/mL
CCc1cn([C@@H]2O[C@H](CO)[C@@H](O)[C@@H]2O)c(=O)[nH]c1=O | - | plaque count | 7.4 µM
Nc1ncnc2c1ncn2C[C@@H](CO)OCP(=O)(O)O | PCV-resistant/A | cytopathic effect | 0.1 µg/mL
Nc1nc2c(ncn2COC(CO)CO)c(=O)[nH]1 | KOS GCV-resistant | cytopathic effect | 0.63 µg/mL
C[C@H](N)C(=O)OCP(=O)(OC[C@H]1O[C@@H](n2ccc3c(N)ncnc32)C[C@@H]1O)Oc1ccccc1 | KOS | - | >100 µM
Nc1ccn(C[C@@H](CO)OCP(=O)(O)O)c(=O)n1 | ACV-resistant | cytopathic effect | 0.3 µg/mL
Cc1cn([C@@H]2O[C@H](CO)[C@@H](O)[C@@H]2F)c(=O)[nH]c1=O | - | plaque count | 0.081 µM
Nc1ncc2c(ncn2COC(CO)CO)n1 | KOS GCV-resistant | cytopathic effect | 0.48 µg/mL
COC(=O)CN(CC(=O)OC)P(=O)(OC[C@H]1O[C@@H](n2cnc3c(N)ccnc32)C[C@@H]1O)Oc1ccccc1 | KOS | - | >100 µM
O=c1[nH]c(=O)n([C@@H]2O[C@H](CO)[C@@H](O)[C@@H]2F)cc1/C=C/Br | - | plaque count | 0.14 µM

The last 2 rows once more:

SMILES	strain or isolate	method	value
COC(=O)CN(CC(=O)OC)P(=O)(OC[C@H]1O[C@@H](n2cnc3c(N)ccnc32)C[C@@H]1O)Oc1ccccc1	KOS	-	>100 µM
O=c1[nH]c(=O)n([C@@H]2O[C@H](CO)[C@@H](O)[C@@H]2F)cc1/C=C/Br	-	plaque count	0.14 µM